Results of unrelated studies side by side (data: NIAID ChemDB).

All rows: host cell toxicity; cell line: MT-2; read-out: CC50

CCn: concentration that lowers growth or viability of the cells by n%. Blank or dashed fields: not listed here. Lines come from different laboratories, so protocols vary.

{"SMILES": "Cc1cn([C@@H]2O[C@H](CO)[C@@H](CF)[C@@H]2O)c(=O)[nH]c1=O", "result": ">100 µM"}
{"SMILES": "COc1ccc(N(C)C(=O)[C@H](Cc2ccccc2)NC(=O)c2cc(C(=O)N[C@@H](Cc3ccccc3)C(=O)N(C)c3ccc(OC)cc3)n(C)n2)cc1", "method": "XTT", "result": "100 µM"}
{"SMILES": "Cc1nc2sc3c(c2c(-c2cccc(-n4cccn4)c2)c1C(OC(C)(C)C)C(=O)O)CCCC3", "result": ">20 µM"}
{"SMILES": "Cc1cnc(N2C(=O)CSC2c2c(Cl)cccc2Cl)c(C)c1", "method": "MTT", "result": ">65 µM"}
{"SMILES": "C=CC1=C(C)C2=NC1=CC1=NC(=CC3=C(C)C(=C([O-])[O-])C(=N3)C(CC(=O)O)=C3NC(=C2)C(C)C3CCC(=O)O)C(CC)=C1C.[Mg+2]", "result": "77 µg/mL"}
{"SMILES": "CC1CN(S(=O)(=O)NC(=O)N[C@@H](Cc2cc(F)cc(F)c2)C(=O)N(C)c2ccc3scnc3c2)c2ncccc21", "method": "XTT", "result": ">100 µM"}
{"SMILES": "CCN(C(=O)[C@H](Cc1cc(F)cc(F)c1)NC(=O)CN1c2ccccc2N(CC(=O)N[C@@H](Cc2cc(F)cc(F)c2)C(=O)N(CC)c2ccc(OC(F)F)cc2)S1(=O)=O)c1ccc(OC(F)F)cc1", "method": "XTT", "result": "100 µM"}
{"SMILES": "N#Cc1ccc(Nc2ncc(Cc3c(Cl)cccc3Cl)s2)cc1", "method": "MTT", "result": ">100 µM"}
{"SMILES": "O=C1NC(=O)C(CSCc2ccc(Br)cc2)(CSCc2ccc(Br)cc2)N1", "result": ">7 µM"}
{"SMILES": "C=CCN(C(=O)[C@H](Cc1cc(F)cc(F)c1)NC(=O)NS(=O)(=O)N[C@@H](Cc1cc(F)cc(F)c1)C(=O)N(CC=C)c1ccc2nccnc2c1)c1ccc2nccnc2c1", "method": "XTT", "result": "100 µM"}
{"SMILES": "O=C1CSC(c2ccccn2)N1c1ccc(Cl)cn1", "method": "MTT", "result": ">10 µM"}
{"SMILES": "Nc1nc2c(ncn2[C@H]2C=C[C@@H](CO)C2)c(=O)[nH]1", "result": "41.8 µg/mL"}
{"SMILES": "Clc1ccccc1Nc1nnc(Cc2c(Cl)cccc2Cl)o1", "method": "MTT", "result": ">100 µM"}
{"SMILES": "COc1ccc(N(C)C(=O)[C@H](Cc2cc(F)cc(F)c2)NC(=O)NS(=O)(=O)N[C@@H](Cc2cc(F)cc(F)c2)C(=O)N(C)c2ccc(OC)nc2)cn1", "method": "XTT", "result": "100 µM"}
{"SMILES": "N#Cc1nc(Cc2cccc3ccccc23)oc1NC[C@H]1CCCO1", "method": "MTT", "result": "37 µM"}
{"SMILES": "O=C1NC(=O)C(CSCc2cccs2)(CSCc2cccs2)N1", "result": ">17 µM"}
{"SMILES": "Clc1cc(Cl)cc(Nc2nnc(Cc3c(Cl)cccc3Cl)s2)c1", "method": "MTT", "result": "64 µM"}
{"SMILES": "O=C1CCCN1[C@H]1C[C@@H](c2cccc([N+](=O)[O-])c2)Nc2ccccc21", "method": "MTT", "result": ">50 µM"}
{"SMILES": "COc1ccc(-c2c(C(OC(C)(C)C)C(=O)O)c(C)nc3sc4c(c23)CCCC4)cn1", "result": ">20 µM"}
{"SMILES": "O=C1NC(=O)C(CS)(CS)N1", "result": ">0.8 µM"}
{"SMILES": "CC1Cc2cccnc2N1S(=O)(=O)NC(=O)N[C@@H](Cc1cc(F)cc(F)c1)C(=O)N(C)c1ccc2scnc2c1", "method": "XTT", "result": ">1 µM"}
{"SMILES": "Cc1nc2sc3c(c2c(-c2ccc4nccn4c2)c1C(OC(C)(C)C)C(=O)O)CCCC3", "result": ">20 µM"}
{"SMILES": "COc1cc2c(c(OC)c1)[C@@H](N1CCCC1=O)C[C@@H](c1cccc(N)c1)N2", "method": "ATP", "result": "75.39 µM"}
{"SMILES": "CC(C)C[C@H](NC(=O)[C@@H](N)CC(N)=O)C(=O)N[C@@H](Cc1ccccc1)C(=O)N[C@H](C(=O)N[C@@H](Cc1ccccc1)C(=O)N1CCC[C@H]1C(=O)O)C(C)C", "result": "43.25 µg/mL"}
{"SMILES": "Cc1cn([C@@H]2O[C@H](CO)[C@@H](CN=[N+]=[N-])[C@@H]2O)c(=O)[nH]c1=O", "result": ">100 µM"}
{"SMILES": "[2H]c1nc2cc(N(C)C(=O)[C@H](Cc3cc(F)cc(F)c3)NC(=O)NS(=O)(=O)N3CCc4cccnc43)ccc2s1", "method": "XTT", "result": ">100 µM"}
{"SMILES": "O=C1NC(=O)C(CS)(CSCc2ccccc2)N1", "result": ">2 µM"}
{"SMILES": "CC(C)C[C@H](N)C(=O)N[C@@H](Cc1ccccc1)C(=O)N[C@H](C(=O)N[C@@H](Cc1ccccc1)C(=O)N1CCC[C@H]1C(=O)O)C(C)C", "result": "17.36 µg/mL"}
{"SMILES": "Cc1cn([C@@H]2O[C@H](CO)[C@@H](CF)[C@H]2O)c(=O)[nH]c1=O", "result": ">100 µM"}
{"SMILES": "CN(C)C(=O)[C@H]1CC=CN1S(=O)(=O)NC(=O)N[C@@H](Cc1cc(F)cc(F)c1)C(=O)N(C)c1ccc2scnc2c1", "method": "XTT", "result": ">100 µM"}
{"SMILES": "Clc1cccc(Cl)c1Cc1nnc(Nc2ccncc2)o1", "method": "MTT", "result": "100 µM"}
{"SMILES": "O=C(Cn1nc(C(F)F)cc1C1CC1)N[C@@H](Cc1cc(F)cc(F)c1)c1nc2nc(-c3ncccn3)ccc2c(=O)n1-c1ccc(Cl)c2c(NS(=O)(=O)C3CC3)nn(CC(F)F)c12", "method": "XTT", "result": ">0.5 µM"}
{"SMILES": "O=C1CSC(c2c(Cl)cccc2Cl)N1CCc1ccccc1", "method": "MTT", "result": ">228 µM"}
{"SMILES": "COc1ccc(N(C)C(=O)[C@H](Cc2ccccc2)NC(=O)NS(=O)(=O)N[C@@H](Cc2ccc(F)cc2)C(=O)N(C)C)cc1", "method": "XTT", "result": "100 µM"}
{"SMILES": "C1=Cc2nc1c(-c1ccccc1)c1ccc([nH]1)c(-c1ccccc1)c1nc(c(-c3ccccc3)c3ccc([nH]3)c2-c2ccccc2)C=C1", "result": ">80 µg/mL"}
{"SMILES": "Cc1cc2nc(-c3cccc([N+](=O)[O-])c3)ccc2c(C)c1C", "method": "MTT", "result": ">50 µM"}
{"SMILES": "CC1=C(CCC(=O)O)c2cc3[nH]c(cc4nc(cc5[nH]c(cc1n2)c(CCC(=O)O)c5CC(=O)O)C(CCC(=O)O)=C4C)c(CCC(=O)O)c3CC(=O)O", "result": "55.8 µg/mL"}
{"SMILES": "O=C1NC(=O)C(CSC(=O)c2ccccc2)(CSC(=O)c2ccccc2)N1", "result": ">5 µM"}
{"SMILES": "Nc1cccc([C@@H]2C[C@H](N3CCCC3=O)c3ccccc3N2)c1", "method": "MTT", "result": ">50 µM"}
{"SMILES": "Clc1ccc(Nc2nnc(Nc3ccc(Cl)cc3)o2)cc1", "method": "MTT", "result": "12 µM"}
{"SMILES": "COc1ccc2c(c1)[C@@H](N1CCCC1=O)C[C@@H](c1cccc(N)c1)N2", "method": "ATP", "result": "63.36 µM"}
{"SMILES": "CC(C)C[C@H](NC(=O)[C@@H](N)CC(=O)O)C(=O)N[C@@H](Cc1ccccc1)C(=O)N[C@H](C(=O)N[C@@H](Cc1ccccc1)C(=O)N1CCC[C@H]1C(=O)O)C(C)C", "result": "75.01 µg/mL"}
{"SMILES": "O=C1NC(=O)C(CSCc2ccccc2)N1", "result": ">60 µM"}
{"SMILES": "Cc1nc2sc3c(c2c(-c2ccc(Br)cc2)c1[C@H](OC(C)(C)C)C(=O)O)CCCC3", "result": ">20 µM"}
{"SMILES": "Cc1cc(C)c2c(c1)N[C@H](c1cccc(N)c1)C[C@@H]2N1CCCC1=O", "method": "MTT", "result": ">50 µM"}
{"SMILES": "CN(C(=O)[C@H](Cc1cc(F)cc(F)c1)NS(=O)(=O)CS(=O)(=O)N[C@@H](Cc1cc(F)cc(F)c1)C(=O)N(C)c1ccc2scnc2c1)c1ccc2scnc2c1", "method": "XTT", "result": "100 µM"}
{"SMILES": "Cc1cccc(N2C(=O)CSC2c2ccccn2)n1", "method": "MTT", "result": ">16 µM"}
{"SMILES": "O=C1NC(=O)C(COCc2ccccc2)(COCc2ccccc2)N1", "result": ">87 µM"}
{"SMILES": "Cc1cc(C)n(-c2cccc(-c3c(C(OC(C)(C)C)C(=O)O)c(C)nc4sc5c(c34)CCCC5)c2)n1", "result": ">20 µM"}
{"SMILES": "CN(C(=O)[C@H](Cc1cc(F)cc(F)c1)NC(=O)NS(=O)(=O)N1CCCC1c1ccccn1)c1ccc2scnc2c1", "method": "XTT", "result": ">100 µM"}
{"SMILES": "Cc1cc(C)c2ccc(-c3cccc([N+](=O)[O-])c3)nc2c1", "method": "ATP", "result": ">180 µM"}
{"SMILES": "CN(C)C(=O)C1Cc2cccnc2N1S(=O)(=O)NC(=O)N[C@@H](Cc1cc(F)cc(F)c1)C(=O)N(C)c1ccc2scnc2c1", "method": "XTT", "result": ">100 µM"}
{"SMILES": "C=Cc1c(C)c2cc3nc(cc4[nH]c(cc5nc(cc1[nH]2)C(C)=C5CO)c(C)c4CCC(=O)O)C(CCC(=O)O)=C3C", "result": "31 µg/mL"}
{"SMILES": "COc1ccc(N(C)C(=O)[C@H](Cc2ccccc2)NC(=O)NS(=O)(=O)N[C@@H](Cc2ccccc2)C(=O)N(C)c2ccc3c(c2)OCO3)cc1", "method": "XTT", "result": "50 µM"}
{"SMILES": "Nc1cccc([C@@H]2C[C@H](N3CCCC3=O)c3cc(I)ccc3N2)c1", "method": "MTT", "result": ">50 µM"}
{"SMILES": "Cc1nc2sc3c(c2c(-c2ccccc2CO)c1C(OC(C)(C)C)C(=O)O)CCCC3", "result": ">20 µM"}
{"SMILES": "O=C1NC(=O)C(CSCC2CCCCC2)(CSCC2CCCCC2)N1", "result": ">12 µM"}
{"SMILES": "CC(C)C[C@H](NC(=O)[C@@H](N)CCC(N)=O)C(=O)N[C@@H](Cc1ccccc1)C(=O)N[C@H](C(=O)N[C@@H](Cc1ccccc1)C(=O)N1CCC[C@H]1C(=O)O)C(C)C", "result": "10.54 µg/mL"}
{"SMILES": "CCOC(C(=O)O)c1c(C)nc2sc3c(c2c1-c1ccc(OC)nc1)CCCC3", "result": ">20 µM"}
{"SMILES": "C=CC1=C(C)C2=NC1=CC1=NC(=C(CC)/C1=C\\[O-])C=c1[n-]c3c(c1C)C(=O)[C@H](C(=O)OC)C=3C1=NC(=C2)[C@@H](C)[C@@H]1CCC(=O)OC/C=C(\\C)CCCC(C)CCCC(C)CCCC(C)C.[Mg+2]", "result": ">80 µg/mL"}
{"SMILES": "Nc1nc(N)c2ncn([C@H]3CC[C@@H](CO)C3)c2n1", "result": ">100 µg/mL"}
{"SMILES": "C=Cc1c(C)c2cc3[nH]c(cc4nc(cc5nc(cc1[nH]2)C(C)=C5CCC(=O)OC)C(CCC(=O)OC)=C4C)c(C)c3C=C", "result": ">80 µg/mL"}
{"SMILES": "CCn1cc(-c2c(C(OC(C)(C)C)C(=O)O)c(C)nc3sc4c(c23)CCCC4)cn1", "result": ">20 µM"}
{"SMILES": "CN(C(=O)[C@H](Cc1cc(F)cc(F)c1)NC(=O)Cn1c(=O)n(CC(=O)N[C@@H](Cc2cc(F)cc(F)c2)C(=O)N(C)c2ccc3scnc3c2)c2ccccc21)c1ccc2scnc2c1", "method": "XTT", "result": "100 µM"}
{"SMILES": "COc1ccc2nc(-c3cccc(N)c3)ccc2c1", "method": "ATP", "result": "109 µM"}
{"SMILES": "Nc1nc(Cl)c2ncn([C@H]3CC[C@@H](CO)C3)c2n1", "result": ">100 µg/mL"}
{"SMILES": "COc1ccc(N(C)C(=O)[C@H](Cc2ccccc2)NC(=O)NS(=O)(=O)N(c2ccccc2)C(C)C)cc1", "method": "XTT", "result": ">100 µM"}

5 of the rows above, restated:

SMILES	method	result
CN(C)C(=O)[C@H]1CC=CN1S(=O)(=O)NC(=O)N[C@@H](Cc1cc(F)cc(F)c1)C(=O)N(C)c1ccc2scnc2c1	XTT	>100 µM
C=Cc1c(C)c2cc3nc(cc4[nH]c(cc5nc(cc1[nH]2)C(C)=C5CO)c(C)c4CCC(=O)O)C(CCC(=O)O)=C3C	-	31 µg/mL
Nc1cccc([C@@H]2C[C@H](N3CCCC3=O)c3ccccc3N2)c1	MTT	>50 µM
CC(C)C[C@H](NC(=O)[C@@H](N)CC(=O)O)C(=O)N[C@@H](Cc1ccccc1)C(=O)N[C@H](C(=O)N[C@@H](Cc1ccccc1)C(=O)N1CCC[C@H]1C(=O)O)C(C)C	-	75.01 µg/mL
O=C1NC(=O)C(CSCc2ccccc2)N1	-	>60 µM